# HIV-1 5' UTR: DMS reactivities by position

RNA: 5' end of the HIV-1 NL4-3 genome, made in vitro. Positions 1-437 read:
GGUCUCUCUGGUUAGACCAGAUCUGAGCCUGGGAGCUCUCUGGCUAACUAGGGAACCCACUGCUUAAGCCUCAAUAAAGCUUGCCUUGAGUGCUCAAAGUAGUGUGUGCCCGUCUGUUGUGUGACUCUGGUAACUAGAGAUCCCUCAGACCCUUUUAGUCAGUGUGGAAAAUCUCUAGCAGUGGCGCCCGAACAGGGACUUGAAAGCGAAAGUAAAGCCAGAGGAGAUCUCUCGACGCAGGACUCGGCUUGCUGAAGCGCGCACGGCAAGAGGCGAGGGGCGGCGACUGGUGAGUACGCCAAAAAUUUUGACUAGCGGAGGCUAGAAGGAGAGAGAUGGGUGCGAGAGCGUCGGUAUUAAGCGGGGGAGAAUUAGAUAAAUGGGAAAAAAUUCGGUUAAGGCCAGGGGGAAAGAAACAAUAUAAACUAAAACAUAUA

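Mutant RNA libraries with 1G, 2G or 3G starts, with or without cap, were folded at 37 °C for 30 min. Monomer and dimer bands were cut from native gels after folding in high salt (300 mM KCl, 5 mM MgCl2) or low salt (40 mM KCl, 0.1 mM MgCl2). Each band was probed in the gel with DMS (170 mM, 15 min, 37 °C), with ethanol as control, and sequenced.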

Values are winsor-normalised DMS reactivities of A and C; higher means more reactive, usually unpaired. One numbering serves 1G, 2G and 3G. A position is written with its base.

| # | position | 1G uncapped low-salt dimer | 2G capped low-salt dimer | 3G uncapped high-salt monomer |
|---|---|---|---|---|
| 1 | A46 | 0.15 | 0.05 | 0.03 |
| 2 | A192 | 0.65 | 0.75 | 0.84 |
| 3 | A431 | 0.64 | 0.59 | 0.60 |
| 4 | C143 | 0.03 | 0.03 | 0.03 |
| 5 | A421 | 0.38 | 0.36 | 0.36 |
| 6 | C109 | 0.14 | 0.21 | 0.08 |
| 7 | C57 | 0.59 | 0.03 | 0.03 |
| 8 | C287 | 0.38 | 0.40 | 0.32 |
| 9 | A77 | 0.75 | 0.71 | 0.92 |
| 10 | A360 | 0.53 | 0.60 | 0.53 |
| 11 | C110 | 0.09 | 0.16 | 0.14 |
| 12 | A387 | 0.24 | 0.22 | 0.24 |
| 13 | C322 | 0.03 | 0.03 | 0.03 |
| 14 | A269 | 0.27 | 0.25 | 0.45 |
| 15 | A319 | 0.91 | 0.90 | 0.85 |
| 16 | A209 | 0.46 | 0.38 | 0.47 |
| 17 | C258 | 0.22 | 0.26 | 0.27 |
| 18 | A415 | 0.22 | 0.23 | 0.24 |
| 19 | C144 | 0.03 | 0.03 | 0.03 |
| 20 | A301 | 0.25 | 0.26 | 0.23 |
| 21 | A376 | 0.74 | 0.74 | 0.74 |
| 22 | A216 | 0.59 | 0.67 | 0.64 |
| 23 | C264 | 0.21 | 0.21 | 0.41 |
| 24 | C281 | 0.27 | 0.40 | 0.32 |
| 25 | A227 | 0.34 | 0.23 | 0.35 |
| 26 | C70 | 0.03 | 0.03 | 0.03 |
| 27 | C284 | 0.15 | 0.15 | 0.20 |
| 28 | A225 | 0.75 | 0.83 | 0.80 |
| 29 | C299 | 0.06 | 0.06 | 0.08 |
| 30 | A101 | 0.13 | 0.15 | 0.29 |
| 31 | C38 | 0.03 | 0.03 | 0.03 |
| 32 | A203 | 0.52 | 0.47 | 0.52 |
| 33 | C274 | 0.26 | 0.25 | 0.76 |
| 34 | C312 | 0.07 | 0.07 | 0.12 |
| 35 | C60 | 0.09 | 0.19 | 0.75 |
| 36 | A371 | 0.91 | 0.91 | 0.91 |
| 37 | A334 | 0.44 | 0.39 | 0.52 |
| 38 | C188 | 0.12 | 0.07 | 0.06 |
| 39 | C267 | 0.08 | 0.06 | 0.12 |

4 of these entries, quoted again:

| position | 1G uncapped low-salt dimer | 2G capped low-salt dimer | 3G uncapped high-salt monomer |
|---|---|---|---|
| A421 | 0.38 | 0.36 | 0.36 |
| A77 | 0.75 | 0.71 | 0.92 |
| C284 | 0.15 | 0.15 | 0.20 |
| C60 | 0.09 | 0.19 | 0.75 |

From the data files of Ye et al. 2022, doi:10.1038/s41594-022-00746-2.